Library screen at single concentrations

Measurements from “University of Dundee, Small-Polar-MMV Screening Library” (2021), ChEMBL document CHEMBL3988442.

The filed quantity is “Percent Effect” (%).
The record does not define 0% and 100%; most values in the screen are far below 50% and negative numbers occur (in some assays of this library far below -100).
The entries come from a sample that favours strong results.

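Growth of Mycobacterium tuberculosis over 3 days (7H9 medium with glucose and tyloxapol); the read-out is not stated. Compounds at 500 µM. Higher reads as more growth inhibition (inferred: compounds with an IC50 in retests scored well above the rest). About 18,000 compounds were tested under these conditions; 7.9% (about 1,400) showed 50% or more at least once.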

structure,percent effect
O=C(CCn1cccc1)N1CCn2nc(CO)cc2C1,0.06253%
O=C(NCc1cccc(Cl)c1)c1cnns1,81.09%
NCC(CO)Cc1ccc(F)c(F)c1 (stereo not drawn),26.42%
CC(C)N(C)S(=O)(=O)N(C)Cc1ccc(Br)o1,72.58%
NCC(=O)Nc1ccccc1,8.12%
COc1ccc(C(C)=O)cc1CN1CCCCC1,-3.785%
Nc1ccn(-c2ccc(C(F)(F)F)cn2)n1,29.88%
CN1CC(CO)C2(CCNCC2)C1 (stereo not drawn),-1.124%
COCCOc1ccc(C(=O)NCc2ccco2)cc1,75.99%
Cc1cccn2cc(CS(=O)(=O)CCCC#N)nc12,2.23%
CCNC(=O)NCC(C)Oc1cccc(OC)c1 (stereo not drawn),72.28%
Cc1nn(C)cc1C(C)Nc1ncccc1C#N (stereo not drawn),27.5%
Cn1c(CO)nnc1SCC=Cc1ccccc1,75.58%
COCCN(C)CCNC(=O)c1cc2ccccc2[nH]1,32.58%
COCc1nc(CCNC(=O)Cc2cccnc2)no1,3.242%
CC(C)NC(=O)C(C)NC(=O)C1CCC1 (stereo not drawn),6.718%
CN1CCCN(C(=O)NCCCNS(C)(=O)=O)CC1,1.2%
Cn1c(=O)[nH]c(=O)c2cccnc21,19.28%
CNC(CO)c1ccc(Cl)cc1 (stereo not drawn),8.597%
NCCC1C(=O)Nc2ccccc21 (stereo not drawn),20.91%
CC(C)NC(=O)c1ccc(CN2CCCC2)cc1,13.53%
CCn1nc(C(C)C)cc1C(=O)N1CCC(N)C1 (stereo not drawn),5.896%
Cc1ccc(-c2nnc(SCC(=O)N(C)C)n2C)cc1,19.92%
COc1ccc(C(F)(F)F)cn1,-2.921%
CCn1cc(N)ccc1=O,-118.3%
CC(=O)N1CCC(NCc2ccc3c(c2)OCO3)CC1,10.8%
CN(CC(N)=O)Cc1cc(Br)c2c(c1)OCO2,40.79%
O=C(COC(=O)c1cccs1)NCc1ccco1,74.42%
Cn1ccnc1CN1CCCCC1CN1CCOCC1 (stereo not drawn),2.077%
COc1ccc(Br)c(S(=O)(=O)N(C)C)c1,54.72%
NS(=O)(=O)c1cccc(S(=O)(=O)c2ccc(Cl)cc2)c1,73.05%
NC(=O)NC(=O)CCN1CCCc2c(Br)cccc2C1,81.98%
C[C@]1(O)CCN(c2nnc(-c3ccccc3)s2)C[C@@H]1O,8.358%
CCCn1cc(CNc2ccc(F)cn2)cn1,65.97%
CC(=O)NC1CCN(CC(=O)Nc2ccccc2)CC1,6.734%
CCS(=O)(=O)NCCSc1nc2cc(F)c(F)cc2[nH]1,69.25%
CCCNC(=O)CSCc1nc(-c2ccccc2)no1,80.63%
CNC(=O)CN(C)CCn1c(=O)cc(C)[nH]c1=O,6.223%
CCCN(C)Cc1nc(-c2cccnc2)no1,42.16%
O=c1[nH]c(-c2ccccn2)nc2c1CCCN2,35.01%
CN(Cc1ccnn1C)S(=O)(=O)c1cccs1,32.56%
CC(C(=O)Nc1ccc(Br)cc1)n1cnnn1 (stereo not drawn),72.61%
NC(=O)c1ccc2c(c1)CCCN2,22.9%
Nc1nnc(SCc2ccccc2F)s1,61.69%
Cn1ccnc1CN(CCO)CC1CC1,13.75%
CCCc1cc(C(=O)N2CCOC(C(F)(F)F)C2)no1 (stereo not drawn),5.652%
CN(C)c1cc([C@H]2C[C@@H](O)C2)nc(N)n1,2.259%
O=C(COc1ccccc1)Nn1cnnc1,10.6%
N#CCc1cc(Cl)ccn1,-11.35%
NCC1CCN(C2CCCCC2)C1 (stereo not drawn),-2.531%
COc1ccc(CCN)c(OC)c1,85.07%
NCc1cccc(OCc2ccccn2)c1,52.85%
NC(=O)CCS(=O)(=O)CCN1CCc2ccccc2C1,24.79%
CC(NCCO)c1ccc(Br)s1 (stereo not drawn),11.5%
O=C(CN1CCOCC1)NCc1ccc2sccc2c1,27.9%
Cc1ccc(C2(O)CCNC2)cc1 (stereo not drawn),70.89%
NC(=O)C1CCN(CCSc2ccccc2)CC1,20.96%
COc1ccc(C2CCN(CC(=O)NC(N)=O)C2)cc1 (stereo not drawn),65.05%
CC(O)CCc1ccc(O)cc1 (stereo not drawn),11.18%
O=C(NCCc1ccccn1)Nc1cn[nH]c1,9.512%
O=c1c2ccccc2cnn1CN1CCCC1,63.89%
COc1ccc(OC)c(NC(=O)N(C)CCN(C)C)c1,27.38%
c1cnn(CCNCCn2cccn2)c1,-0.6894%
Cc1nc(C(N)c2ccc(Cl)c(F)c2)no1 (stereo not drawn),31.25%
COC(=O)Cc1ccc(-n2cnnn2)cc1,3.812%
CN(C)C1(CNC(=O)c2ccccn2)CCCC1,49.17%
COCc1noc([C@@H]2CN(C3CCC3)C[C@H]2CO)n1,-5.504%
CNC(=O)CN1CCC(NC(=O)Nc2cn[nH]c2)CC1,-4.956%
OC1(CN2CCCCC2)CCN(Cc2ncc[nH]2)C1 (stereo not drawn),24.51%
CNS(=O)(=O)C1CCCN(c2ncc(Br)cc2C)C1 (stereo not drawn),2.266%
CS(=O)(=O)NCCCN1CCc2ccccc21,35.65%
N#Cc1ccc(NCCOc2ccccc2)nc1,61.17%
NCCc1n[nH]c(=O)n1CCc1ccccc1,11.21%
CC(C)CC(C)(CN)NS(C)(=O)=O (stereo not drawn),-1.049%
CCNC(=O)CNc1ccnc2cc(F)ccc12,-2.771%
Cc1cncc(C(=O)N2CCCC2C(C)(C)O)c1 (stereo not drawn),-17.82%
Cc1ccccc1OCCCNC(=O)NC[C@@H](C)O,52.49%
Cc1cc(C)c2cc(C(=O)NCCO)[nH]c2c1,35.97%
CCC(CC)C(=O)NCc1ccncc1,26.96%
C=C(C)CN1CCN(C(=O)N(C)C)CC1,-3.745%
NC1CCN(C(=O)c2ccccc2Cl)C1 (stereo not drawn),2.775%
CC1CCCN1CCN (stereo not drawn),-14.04%
O=C(Nc1ncccc1O)c1cccnc1C(F)(F)F,1.068%
CC(=O)N1CCCN(S(=O)(=O)c2ncn(C)c2Cl)CC1,9.129%

For reference, 7 entries once more:

NCc1cccc(OCc2ccccn2)c1 gave 52.85%.
Cc1ccc(C2(O)CCNC2)cc1 (stereo not drawn) gave 70.89%.
O=C(COc1ccccc1)Nn1cnnc1 gave 10.6%.
CNC(=O)CN1CCC(NC(=O)Nc2cn[nH]c2)CC1 gave -4.956%.
O=C(NCCc1ccccn1)Nc1cn[nH]c1 gave 9.512%.
CC(C)NC(=O)c1ccc(CN2CCCC2)cc1 gave 13.53%.
NCC(CO)Cc1ccc(F)c(F)c1 (stereo not drawn) gave 26.42%.